Results: patent publication US20100292214A1, “Compounds with Antiparasitic Activity, Applications thereof to the Treatment of Infectious Diseases Caused by Apicomplexans” (commissariat a l'Energie Atomique, priority 2007, published 2010)

Tests used:
[1] = tested on: Toxoplasma gondii RH-β1 strain; conditions: read-out: IC50 assessed on Toxoplama Gondii; RH-β1 strain in HFF monolayers, 48-72 hr, CPRG β-galactosidase readout, triplicates
[2] = tested on: asynchronous 3D7 chloroquine-sensitive P. falciparum infected red blood cells; assay: Labeled hypoxanthine incorporation assay (in vitro anti-malarial activity); assay type: cell-based; conditions: read-out: IC50 assessed on Plasmodium Falciparum; 3D7 chloroquine-sensitive strain, infected RBC, 48 h contact, [3H]-hypoxanthine incorporation; two independent experiments in duplicates

Row | Structure (SMILES) | IC50 [1] [nM] | IC50 [2] [nM]
1 | C[C@@H](COC(=O)N1CCC(N(C(=O)c2ccccc2)c2ccccc2)CC1)N(Cc1ccccc1)Cc1ccccc1 | 2700 | 1460
2 | C[C@@H](COC(=O)N1CCC(N(C(=O)Nc2ccccc2)c2ccccc2)CC1)N(Cc1ccccc1)Cc1ccccc1 | 2700 | 4120
